# Taken from: PubChem BioAssay AID504761 (Drosophila RNAi Screening Center, 2011)
# Aim: 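Fly genes whose silencing reduces dengue virus type 2 infection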 (primary screen)
# System: D.Mel-2 cells from Drosophila
# Knock-down reagent: long dsRNA against Drosophila genes
# Conditions: infection with dengue virus type 2; dose and infection time not stated
# Read-out: 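Cells stained for dengue envelope protein and imaged; percent of infected cells per well on duplicate plates, ranked by infection, with stained nuclei counted for cell number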
# Direction: infection score: higher = more virus-infected cells; cell count: higher = more cells in the well
# Active means: 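Low infection ranks in the two replicates (chance level up to 0.065) followed by a retest with a 1.5-fold or larger significant decrease, p below 0.05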
# Calls: active = confirmed: knock-down lowers infection; inactive = not picked or not confirmed
# In all, the deposit lists about 22,000 reagents; shown is an unselected part of those that have a named target and a result. In the full data, 116 (0.52%) are marked active. 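Calls depend on retest data that are not deposited; infection was ranked per plate without normalising between plates; the unit of the infection score is not given.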 Raw values vary from plate to plate and are shown uncorrected. Reagents against one gene are numbered here. No sequences are given here. The record does not give: the amount of reagent, the time to read-out.
gene,reagent,"infection score, replicate 1","infection score, replicate 2","cell count, replicate 1","cell count, replicate 2",outcome
CG42795,1,2.16,1.24,5830,5888,inactive
CG42795,2,13.6,2.93,6829,7097,inactive
CG42795,3,4.15,1.8,7091,6720,inactive
CG10991 (retired record),1,6.12,7.96,6701,6269,inactive
CG42663,1,7.88,6.3,6814,6859,inactive
CG42663,2,10.5,7.57,7053,7107,inactive
CG42663,3,3.02,8.31,6288,6315,inactive
CG14416,1,2.67,10.6,712,5479,inactive
CG14416,2,10.4,7.81,6014,6258,inactive
SPR,1,2.11,1.39,6450,6859,inactive
SPR,2,3.57,2.81,6531,6800,inactive
SPR,3,1.01,7.28,6408,6289,inactive
Hil,1,1.55,11.2,6514,6348,inactive
Hil,2,2.99,1.63,5978,6583,inactive
CG3520,1,14.7,14.9,5822,6172,inactive
drm,1,3.3,7.22,6118,6328,inactive
CCT4,1,16.7,20.7,3173,3619,inactive
CCT4,2,1.36,,1103,514,inactive
CG9395,1,7.01,3.01,6779,6950,inactive
CG9395,2,2.46,6.66,2479,6108,inactive
CG34431,1,10.4,3.25,6300,5907,inactive
promL,1,7.4,3.05,7152,7090,inactive
CG32281,1,11.6,12.9,6203,5510,inactive
PNKP,1,6.73,5.19,6836,7161,inactive
CG17105,1,0.48,2.26,6660,6859,inactive
CG17105,2,8.01,3.52,6404,6245,inactive
CG18675,1,3.3,1.08,6272,6038,inactive
bol,1,4.87,2.35,5795,6005,active
bol,2,2.12,3.64,5900,5848,inactive
bol,3,1.22,1.47,5827,5837,inactive
bol,4,6.5,7.32,6449,6656,inactive
orb,1,1.17,2.48,6554,7420,inactive
CG33108,1,3.82,15,6308,6111,inactive
CG33108,2,2.41,3.74,4864,6334,inactive
Hus1-like,1,4.8,9.14,6307,6508,inactive
IscU,1,2.21,13.7,5849,5085,inactive
Rala,1,1.25,7.26,6485,6815,inactive
Rala,2,15.3,2.74,4174,6341,inactive
pim,1,14.6,4.15,6131,5873,inactive
